Results published in patent US20090221500A1 (ANGELICA THERAPEUTICS, published 2009).

Molecular target: elongation factor-2 (EF-2) (rabbit (reticulocyte lysate))
Experiment: cell-based or functional assay

B1: DT382 (G53E): Null construct (enzyme)
chain: not shown
IC50 (ng/12.5 µl), inhibition of protein synthesis in IVTT: 46.6 ng/12.5 µl
